A mixed list of measured activities; the numbers were collected in NIAID ChemDB.

Common to all: growth or infection tests; agent: HIV-2; endpoint: EC50

Lines come from different laboratories, so protocols vary. ECn is the concentration giving n% inhibition of infection, replication or growth. An empty or dashed field is not shown.

| structure | conditions | cell line | strain | read by | mutations | value |
|---|---|---|---|---|---|---|
| CC(C)(C)[Si](C)(C)OC[C@H]1O[C@@H](n2cnc3[nH]c(=O)[nH]c(=O)c32)[C@H](O[Si](C)(C)C(C)(C)C)C12OS(=O)(=O)C=C2N | - | MT-4 | ROD | trypan blue | - | >4 µg/mL |
| Cc1cn([C@H]2C[C@H](N=[N+]=[N-])[C@@H](CO)O2)c(=O)[nH]c1=O | clinical isolate | PBMC | CBL-20 | cytopathic effect / XTT | - | 0.002 µM |
| Nc1ccn(/C=C\P(=O)(O)O)c(=O)n1 | - | CEM + CEM-SS | ROD | - | - | >200 µM |
| Cc1ccnc2c1NC(=O)c1cccnc1N2C1CC1 | - | MT-4 | ROD | cytopathic effect / MTT | - | >97.6 µM |
| CN(C)c1ncnc2c1ncn2[C@@H]1O[C@H](CO[Si](C)(C)C(C)(C)C)C2(OS(=O)(=O)C=C2N)[C@H]1O[Si](C)(C)C(C)(C)C | - | MT-4 | ROD | trypan blue | - | >4 µg/mL |
| Nc1ncnc2c1ncn2/C=C\P(=O)(O)O | - | CEM + CEM-SS | ROD | - | - | >200 µM |
| COc1cc(/C=N/NC(=O)c2csc(N3N=C(c4ccccc4)CC3c3ccc(Cl)cc3)n2)ccc1OCc1ccccc1 | - | MT-4 | ROD | MTT / absorbance | - | >125 µM |
| Cc1cn([C@H]2C[C@H](N=[N+]=[N-])[C@@H](CO)O2)c(=O)[nH]c1=O | - | PBMC | 2298 | ELISA | - | 0.014 µM |
| O=C(N/N=C/c1ccc(Cl)cc1)c1csc(N2N=C(c3ccccc3)CC2c2ccc(Cl)cc2)n1 | - | MT-4 | ROD | MTT / absorbance | - | >125 µM |
| CCOP(=O)(/C=C/n1cc(I)c(=O)[nH]c1=O)OCC | - | CEM + CEM-SS | ROD | - | - | >200 µM |
| CCN[C@H]1CO[C@@H]2OC[C@H](OC(=O)N[C@@H](Cc3cc(F)cc(F)c3)[C@H](O)CN(CC(C)C)S(=O)(=O)c3ccc4nc(NC5CC5)sc4c3)[C@@H]21 | - | MT-4 | EHO | MTT / p24 | - | 0.00058 µM |
| COc1cc(/C=N/NC(=O)c2csc(N3N=C(c4ccccc4)CC3c3ccc(Cl)cc3)n2)ccc1O | - | MT-4 | ROD | MTT / absorbance | - | >60.1 µM |
| CC(=O)OC[C@H]1O[C@@H](n2cc(C)c(=O)[nH]c2=O)C[C@@H]1N(C)OC(C)=O | - | MT-4 | ROD | trypan blue | - | 75 µg/mL |
| O=C(N/N=C/c1ccccc1O)c1csc(N2N=C(c3ccccc3)CC2c2ccc(Cl)cc2)n1 | - | MT-4 | ROD | MTT / absorbance | - | >7.33 µM |
| Nc1ncnc2c1ncn2/C=C/P(=O)(O)O | - | CEM + CEM-SS | ROD | - | - | >200 µM |
| O=C(N/N=C/c1c(Cl)cccc1Cl)c1csc(N2N=C(c3ccccc3)CC2c2ccc(Cl)cc2)n1 | - | MT-4 | ROD | MTT / absorbance | - | >6.26 µM |
| Cn1cnc2ncn([C@@H]3O[C@H](CO[Si](C)(C)C(C)(C)C)C4(OS(=O)(=O)C=C4N)[C@H]3O[Si](C)(C)C(C)(C)C)c2c1=O | - | MT-4 | ROD | trypan blue | - | >100 µg/mL |
| Cc1cn([C@H]2C[C@H](N(C)O)[C@@H](CO)O2)c(=O)[nH]c1=O | - | MT-4 | ROD | trypan blue | - | 0.8 µg/mL |
| Cc1cn([C@H]2C[C@H](N=[N+]=[N-])[C@@H](CO)O2)c(=O)[nH]c1=O | - | U-937 | LAV-2 | virus yield | - | <1 µM |
| CC(C)CN(C[C@@H](O)[C@H](Cc1ccccc1)NC(=O)O[C@H]1CCOC1)S(=O)(=O)c1ccc(N)cc1 | - | MT-4 | EHO | MTT / p24 | - | 0.3547 µM |
| O=C(N/N=C/c1ccccc1[N+](=O)[O-])c1csc(N2N=C(c3ccccc3)CC2c2ccc(Cl)cc2)n1 | - | MT-4 | ROD | MTT / absorbance | - | >125 µM |
| O=c1ccn(/C=C\P(=O)(O)O)c(=O)[nH]1 | - | CEM + CEM-SS | ROD | - | - | >200 µM |
| Cc1cn([C@H]2C[C@H](N=[N+]=[N-])[C@@H](CO)O2)c(=O)[nH]c1=O | - | MT-4 | ROD | cytopathic effect / MTS | - | 0.0004 µM |
| O=C(N/N=C/c1cc(Br)ccc1O)c1csc(N2N=C(c3ccccc3)CC2c2ccc(Cl)cc2)n1 | - | MT-4 | ROD | MTT / absorbance | - | >125 µM |
| C#C[C@]1(CO)O[C@@H](n2cnc3c(N)nc(F)nc32)CC1O | - | MAGIC-5A | ROD9 | β-galactosidase / absorbance | M184V | 0.011 µM |
| c1ccc(CNCc2ccc(CN3CCCNCCNCCCNCC3)cc2)nc1 | - | MT-4 | ROD | cytopathic effect / MTS | - | 0.0123 µM |
| CCOCn1c(Cc2ccccc2)c(C(C)C)c(=O)[nH]c1=O | - | MT-4 | EHO | cytopathic effect / MTT | - | 5.6 µM |
| CC(C)(C)[Si](C)(C)OC[C@H]1O[C@@H](n2cnc3c(N)ncnc32)[C@H](O[Si](C)(C)C(C)(C)C)C12OS(=O)(=O)C=C2N | - | MT-4 | ROD | trypan blue | - | >4 µg/mL |
| CCN[C@H]1CO[C@@H]2OC[C@H](OC(=O)N[C@@H](Cc3ccccc3)[C@H](O)CN(CC(C)C)S(=O)(=O)c3ccc4nc(NC5CC5)sc4c3)[C@@H]21 | - | MT-4 | EHO | MTT / p24 | - | 0.0219 µM |
| CCc1cc(NCc2nc3c(Cl)ccc(Cl)c3o2)c(=O)[nH]c1C | - | MT-4 | EHO | cytopathic effect / MTT | RT-S102L | >71 µM |
| COc1ncnc2c1ncn2[C@@H]1O[C@H](CO[Si](C)(C)C(C)(C)C)C2(OS(=O)(=O)C=C2N)[C@H]1O[Si](C)(C)C(C)(C)C | - | MT-4 | ROD | trypan blue | - | >4 µg/mL |

For reference, 2 entries again:

structure	conditions	cell line	strain	read by	mutations	value
O=C(N/N=C/c1ccc(Cl)cc1)c1csc(N2N=C(c3ccccc3)CC2c2ccc(Cl)cc2)n1	-	MT-4	ROD	MTT / absorbance	-	>125 µM
Cc1cn([C@H]2C[C@H](N=[N+]=[N-])[C@@H](CO)O2)c(=O)[nH]c1=O	-	U-937	LAV-2	virus yield	-	<1 µM